# Tested on: JEV strain AT31
# Conditions: not given
row,Compound,Inhibition (%)
1,Harpagide,-1.46
2,Evodiamine,15.3001

# Same assay, conditions: Primary screening of 1034 compounds in the natural extracts library
row,Compound,Inhibition (%)
1,COC[C@]12CN(C)C3[C@@H]4[C@H](OC)[C@H]1[C@@]3([C@@H](OC)C[C@H]2O)[C@@H]1C[C@@]2(O)[C@H](OC(=O)c3ccccc3)[C@@H]1[C@]4(O)[C@@H](O)[C@@H]2OC [Benzoylmesaconine],-3.649
2,COc1ccc(C=O)cc1 [Anisic aldehyde],10.0208
3,CCOC(=O)/C=C/c1ccc(O)c(OC)c1 [Ethyl 4'-hydroxy-3'-methoxycinnamate],-25.256
4,CC(C)=CCC[C@@](C)(O)[C@H]1CC[C@]2(C)[C@@H]1[C@H](O)C[C@@H]1[C@@]3(C)CC[C@H](O)C(C)(C)[C@@H]3[C@@H](O[C@@H]3O[C@H](CO)[C@@H](O)[C@H](O)[C@H]3O)C[C@]12C [20(R)Ginsenoside Rh1],-11.8935
5,CCC/C=C1\OC(=O)C2=C1CC[C@H]1[C@H]3C=C4C(=O)O/C(=C\CCC)[C@@]4(CC3)[C@@H]21 [Levistilide A],58.6202
6,COc1ccc(-c2cc(=O)c3c(O)cc(O)c(-c4cc(-c5cc(=O)c6c(O)cc(OC)cc6o5)ccc4OC)c3o2)cc1 [Sciadopitysin],7.587
7,hydroxysaffloryellowA,1.952
8,O=c1cc(-c2ccc(O[C@@H]3O[C@H](CO)[C@@H](O)[C@H](O)[C@H]3O)cc2)oc2cc(O)c([C@@H]3O[C@H](CO)[C@@H](O)[C@H](O)[C@H]3O[C@@H]3OC[C@H](O)[C@H](O)[C@H]3O)c(O)c12 [Vaccarin],1.877
9,COC(=O)C1=CO[C@@H](O[C@@H]2O[C@H](CO)[C@@H](O)[C@H](O)[C@H]2O)[C@H]2[C@@H]1C(=O)C[C@@H]2C [cornin],2.878
10,O=c1cc(-c2ccccc2)oc2cc(O[C@@H]3O[C@H](CO[C@@H]4O[C@H](CO)[C@@H](O)[C@H](O)[C@H]4O)[C@@H](O)[C@H](O)[C@H]3O)c(O)c(O)c12 [Oroxin B],13.4935
11,O=C1C[C@@H](c2ccc(O)cc2)Oc2cc(O)ccc21 [Liquiritigenin],-13.6321
12,COC(=O)[C@@]1(C)CC[C@]2(C(=O)O)CC[C@]3(C)C(=CC[C@@H]4[C@@]5(C)C[C@H](O)[C@H](O[C@@H]6OC[C@@H](O[C@@H]7O[C@H](CO)[C@@H](O)[C@H](O)[C@H]7O)[C@H](O)[C@H]6O)[C@@](C)(CO)[C@@H]5CC[C@]43C)[C@@H]2C1 [EsculentosideA],-5.83
13,C[N+](C)(C)CC(=O)O [Betaine],17.9596
14,COc1ccc(-c2coc3cc(O)cc(O)c3c2=O)cc1 [Biochanin A],62.9444
15,COc1cc([C@H]2OC[C@@H]3[C@@H]2CO[C@H]3c2cc(OC)c(O[C@@H]3O[C@H](CO)[C@@H](O)[C@H](O)[C@H]3O)c(OC)c2)cc(OC)c1O[C@@H]1O[C@H](CO)[C@@H](O)[C@H](O)[C@H]1O [Eleutheroside E],3.332
16,CCCCCCCCCCCC(=O)CC(O)S(=O)(=O)[O-].[Na+] (centres unmarked) [Sodium new houttuyfonate],43.6171
17,COc1cc(/C=C/C(=O)OC[C@H]2O[C@@H](O[C@@H]3[C@@H](O)[C@H](O)[C@@H](CO)O[C@H]3c3c(OC)cc4oc(-c5ccc(O)cc5)cc(=O)c4c3O)[C@H](O)[C@@H](O)[C@@H]2O)ccc1O [6ˊ〞-Feruloylspinosin],9.26
18,C[C@H]1O[C@@H](O[C@H]2CC[C@@]3(C)[C@@H](CC[C@]4(C)[C@@H]3C=CC3=C5CC(C)(C)CC[C@]5(CO)[C@@H](O)C[C@]34C)[C@]2(C)CO)[C@H](O[C@@H]2O[C@H](CO)[C@@H](O)[C@H](O)[C@H]2O)[C@@H](O[C@@H]2O[C@H](CO)[C@@H](O)[C@H](O)[C@H]2O)[C@H]1O [Buddlejasaponin IVb],-23.5828
19,C=C1C2CCC3(C4C[C@H]5C6(CCC[C@@]5(C)CN(CC)C46)[C@H]3[C@H]2O)[C@@H]1O [Bullatine A],7.2916
20,O=C([O-])C1C2CCC(O2)C1C(=O)[O-].[Na+].[Na+] (centres unmarked) [Sodium Demethylcantharidate],-19.8805
21,C=C1CC[C@@H]2[C@](C)(CO)[C@H](O)CC[C@@]2(C)[C@@H]1/C=C/C1=CCOC1=O [Dehydrographkide],79.3338
22,COc1cc(C[C@@H](CO[C@@H]2O[C@H](CO)[C@@H](O)[C@H](O)[C@H]2O)[C@H](CO[C@@H]2O[C@H](CO)[C@@H](O)[C@H](O)[C@H]2O)Cc2ccc(O)c(OC)c2)ccc1O [Secoisolariciresinol Diglucoside],16.7236
23,COC[C@@]12CC[C@H](OC)[C@]34C([C@H]([C@H](OC)[C@H]13)[C@]1(O)[C@H]3[C@@H](OC(=O)c5ccccc5)[C@](O)(C[C@H]34)[C@@H](OC)[C@@H]1O)N(C)C2 [Benzoylhypacoitine],27.5083
24,C=C1CC[C@@H]2[C@](C)(COC(=O)CCC(=O)O)[C@H](OC(=O)CCC(=O)O)CC[C@@]2(C)[C@@H]1/C=C/C1=CCOC1=O [Dehydroandrographolide succinate],5.39
25,COc1cc2c3c(c1OC)-c1ccccc1C[C@H]3NCC2 [N-Nornuciferine],18.0593

row,Compound,Inhibition (%)
1,CN[C@@H](C)[C@H]1[C@H](O)C[C@@]2(C)[C@@H]3CC[C@H]4C(C)(C)[C@@H](NC)CC[C@@]45C[C@@]35CC[C@]12C [Cyclovirobuxin D],4.225
2,Anhydroicaritin,86.4131
3,CN1[C@H]2C[C@H](OC(=O)[C@H](CO)c3ccccc3)C[C@@H]1[C@@H](O)C2 (racemic) [Racanisodamine],0.9644
4,COC(=O)C1=CO[C@@H](O[C@@H]2O[C@H](CO)[C@@H](O)[C@H](O)[C@H]2O)[C@@H]2[C@@]3(C)O[C@H]3[C@@H](O)[C@]12O [Sesamoside],35.8327
5,COC(=O)[C@H](O)[C@@H](NC(=O)c1ccccc1)c1ccccc1,-15.0308
6,CC1(C)[C@@H](O[C@H]2O[C@H](C(=O)O)[C@@H](O)[C@H](O)[C@H]2O[C@@H]2O[C@H](C(=O)O)[C@@H](O)[C@H](O)[C@H]2O)CC[C@]2(C)[C@H]3C(=O)C=C4[C@@H]5C[C@@](C)(C(=O)O)CC[C@]5(C)CC[C@@]4(C)[C@]3(C)CC[C@@H]12.N [Glycyrrhizic acid ammonium salt],-4.747
7,C=C1C[C@@]23CC[C@H]4[C@@](C)(CCC[C@@]4(C)C(=O)O)[C@@H]2CC[C@]1(O[C@@H]1O[C@H](CO)[C@@H](O)[C@H](O)[C@H]1O[C@@H]1O[C@H](CO)[C@@H](O)[C@H](O)[C@H]1O)C3 [Steviolbioside],-6.88
8,COC1=C[C@@H]2[C@@H]3Cc4ccc(OC)c(O)c4[C@]2(CCN3C)CC1=O.Cl [Sinomenine hydrochloride],90.727
9,COc1cc(C2Oc3ccc([C@H]4Oc5cc(O)cc(O)c5C(=O)[C@@H]4O)cc3OC2CO)ccc1O (some centres unmarked) [Isosilybin],-13.837
10,O=c1c2ccccc2ncn1CC1(O)C[C@@H]2NCCC[C@@H]2O1 (some centres unmarked) [isofebrifugin],51.0321
11,COc1cc(/C=C/c2cc(O)cc(O)c2)ccc1O [Isorhapontigenin],45.8326
12,C[C@@H]1O[C@@H](O[C@H]2[C@H](OC(=O)[C@]34CCC(C)(C)C[C@H]3C3=CC[C@@H]5[C@@]6(C)C[C@H](O)[C@H](O[C@@H]7O[C@H](CO)[C@@H](O)[C@H](O)[C@H]7O)[C@@](C)(CO)[C@@H]6CC[C@@]5(C)[C@]3(C)CC4)O[C@H](CO)[C@@H](O)[C@@H]2O)[C@H](O)[C@H](O)[C@H]1O[C@@H]1OC[C@@H](O)[C@H](O)[C@H]1O [Polygalasaponin F],5.768
13,O=C(O)c1cc(O)c2c(c1)C(=O)c1cccc(O[C@@H]3O[C@H](CO)[C@@H](O)[C@H](O)[C@H]3O)c1C2=O [Rhein-8-O-β-D-glucopyranoside],11.2742
14,"O=C(OC[C@H]1OC(OC(=O)c2cc(O)c(O)c(O)c2)[C@H](OC(=O)c2cc(O)c(O)c(O)c2)[C@@H](OC(=O)c2cc(O)c(O)c(O)c2)[C@@H]1OC(=O)c1cc(O)c(O)c(O)c1)c1cc(O)c(O)c(O)c1 (some centres unmarked) [1,2,3,4,6-O-pentagalloylglucose]",43.1151
15,C/C=C/C#CC#C[C@@H](O)[C@@H](/C=C/CCCO)O[C@@H]1O[C@H](CO)[C@@H](O)[C@H](O)[C@H]1O [Lobetyolin],7.5169
16,Oc1cc(O)c2c(c1)O[C@H](c1cc(O)c(O)c(O)c1)[C@@H](O)C2 [(+)-Gallocatechin],-5.153
17,COc1cc2c(c(OC)c1OC)-c1c(cc(OC)c(OC)c1OC)C[C@](C)(O)[C@@H](C)C2 [Schizandrol A],39.8936
18,CC(=O)CCc1ccc(O)cc1 [4-(4-Hydroxyphenyl)-2-butanone],24.9997
19,C=C1[C@H](OC(=O)/C=C(\C)CC)C[C@@H](C(C)C)[C@@H]2[C@@H]([C@@H](C)OC(C)=O)C(=O)C[C@@H]12 [Tussilagone],18.2489
20,CC(=O)O[C@@]1(C)C[C@@H](O)[C@]2(O)C=CO[C@@H](O[C@@H]3O[C@H](CO)[C@@H](O)[C@H](O)[C@H]3O)[C@@H]21 [Acetylharpagide(8-O-Acetylharpagide)],8.712
21,CCCCCCCCCCCCCc1cccc(O)c1C(=O)O [Ginkgolic Acid C13:0],-142.743
22,O=c1c(-c2ccc(O)cc2)coc2c([C@@H]3O[C@H](CO[C@@H]4OC[C@](O)(CO)[C@H]4O)[C@@H](O)[C@H](O)[C@H]3O)c(O)ccc12 [Mirificin],-8.471
23,COc1ccc(/C=C/c2cc(O)cc(O)c2)cc1O[C@@H]1O[C@H](CO)[C@@H](O)[C@H](O)[C@H]1O [Rhapontigenin 3'-O-glucoside],38.2315
24,O=S(=O)([O-])[O-].c1c2c(cc3c1OCO3)-c1cc3ccc4c(c3c[n+]1CC2)OCO4.c1c2c(cc3c1OCO3)-c1cc3ccc4c(c3c[n+]1CC2)OCO4,-4.972

# Same assay, conditions: primary screening of 1034 compounds in the natural extracts library; red numbers = obvious cytotoxicity, blue numbers = insoluble in DMSO (colours not visible)
row,Compound,Inhibition (%)
1,Clinodiside A,-20.1623
2,O=c1ccc2ccc(O)cc2o1 [umbelliferone (7-Hydroxycoumarin)],9.245
3,"CC(C)=CC[C@@H](OC(=O)C=C(C)C)C1=CC(=O)c2c(O)ccc(O)c2C1=O [β,β-Dimethylacrylshikonin]",-31.5278
4,Epimedin A,0.5992
5,Sodium Aescinate,42.9768

# Source: paper PMC7038234, “Screening of Natural Extracts for Inhibitors against Japanese Encephalitis Virus Infection” (Antimicrobial Agents and Chemotherapy, 2020)
